Results of unrelated studies side by side (data: NIAID ChemDB).

All rows: cytotoxicity tests; cells: A549; measure: CC50

An empty or dashed field is not shown. CCn is the concentration with n% toxicity to the cells. Rows are shuffled and stem from different studies.

| structure | method | conditions | value |
|---|---|---|---|
| C=CCSc1n[nH]c(-c2ccc(C(F)(F)F)cc2)n1 |  |  | >100 µg/mL |
| CCCCCC(=O)Nc1nc(=O)n([C@@H]2C[C@H](CO)[C@@H](O)C2)cc1COC |  |  | >2717 µM |
| COc1cc2c(c(OC)c1O)-c1c(cc3c(c1OC)OCO3)C[C@H](C)[C@H](C)[C@@H]2O | MTT |  | 1.3 µg/mL |
| COc1cc(N(C(C)=O)C(C)CCCN2C(=O)CN(C(C)=O)C2(C)C)c2ncccc2c1 |  | 72 h | >100 µg/mL |
| O=C(c1nc2cc(C(F)(F)F)cc([N+](=O)[O-])c2s1)N1CCCCC1 | resazurin / fluorescence |  | 100 µM |
| FC(F)(F)c1ccc(Cl)c(-c2nc(=S)[nH][nH]2)c1 | MTT |  | >100 µg/mL |
| c1cc(N2CCN(c3ccc(C4=NCCN4)cc3)CC2)ccc1C1=NCCN1 |  |  | 1070 µg/mL |
| O=C(O)c1ccc(N2C(=O)c3cccc([N+](=O)[O-])c3C2=O)cc1O | visual reading / absorbance |  | 100 µg/mL |
| C#CCSc1n[nH]c(-c2ccco2)n1 |  |  | >100 µg/mL |
| C=C(C)[C@@H]1CC(=O)C[C@H]2C(=O)[C@@H]3[C@@H]4C(=C[C@@H]12)C(=O)O[C@@H]4C[C@]3(C)O | MTT |  | 20 µM |
| N#Cc1ccc(Nc2cc(Oc3ccc(C#N)cc3)c3ccccc3n2)cc1 | MTT |  | ≥50 µg/mL |
| CC(C)CCN=C(N)c1ccc(N2CCN(c3ccc(C(N)=NCCC(C)C)cc3)CC2)cc1.Cl.Cl |  |  | 15.6 µg/mL |
| COc1c(OC(C)=O)cc2c(c1O)-c1c(cc(O)c(OC)c1OC)C[C@@H](C)[C@@H](C)C2 | MTT |  | >10 µg/mL |
| CC[C@H](C)C(=O)c1c(O)cc(O)cc1OC/C=C(\C)CCC=C(C)C | sulforhodamine |  | 10.5 µM |
| COc1cc([C@@H]2c3cc4c(cc3[C@@H](O[C@@H]3O[C@@H]5CO[C@@H](C)O[C@H]5[C@H](O)[C@H]3O)[C@H]3COC(=O)[C@H]23)OCO4)cc(OC)c1O | resazurin |  | 0.7 µg/mL |
| Cc1ccc(-c2nc3ccccc3n2C(=O)/C=C/c2ccccc2)cc1 | MTT / absorbance |  | <10 µg/mL |
| CC(C)CS[C@@H]1C[C@H](n2cnc3c(N)ncnc32)[C@@H](O)[C@H]1O |  |  | >200 µg/mL |
| COC1=CC(=O)c2c(O)c(C)c(CC(C)=O)c(O)c2C1=O | MTT |  | 2.3 µg/mL |
| Cc1cccc(-c2nc(=S)[nH][nH]2)c1 | MTT |  | >100 µg/mL |
| NC(=NC1CCC1)c1ccc(N2CCN(c3ccc(C(N)=NC4CCC4)cc3)CC2)cc1 |  |  | >5.8 µg/mL |
| C#CCSc1n[nH]c(-c2ccc([N+](=O)[O-])c(C)c2)n1 |  |  | >100 µg/mL |
| CCCCCCCCCCN=C(N)c1ccc(N2CCN(c3ccc(C(N)=NCCCCCCCCCC)cc3)CC2)cc1 |  |  | >71 µg/mL |
| C#CCS(=O)(=O)c1nc(-c2ccc([N+](=O)[O-])c(C(F)(F)F)c2)n[nH]1 | MTT |  | >100 µg/mL |
| CCCCCN=C(N)c1ccc(N2CCN(c3ccc(C(N)=NCCCCC)cc3)CC2)cc1.Cl.Cl |  |  | 66.3 µg/mL |
| S=c1nc(-c2ccc(Cl)cc2)[nH][nH]1 | MTT |  | 43.41 µg/mL |
| C=CCSc1n[nH]c(-c2cccc(C(F)(F)F)c2)n1 |  |  | >100 µg/mL |
| CC1(C)CCC[C@]2(C)[C@H]3C[C@@H](C4=CCOC4=O)CC3=CC[C@@H]12 | absorbance |  | 34.3 µM |
| COCCN1CCN(C(=O)c2nc3cc(C(F)(F)F)c(C)c([N+](=O)[O-])c3s2)CC1 | resazurin / fluorescence |  | >100 µM |
| Br.CN1C=CN(c2cccc(N3C=CN(C)C3)n2)C1 | sulforhodamine / absorbance |  | >30 µM |
| CCCCCCCN=C(N)c1ccc(N2CCN(c3ccc(C(N)=NCCCCCCC)cc3)CC2)cc1 |  |  | >3.4 µg/mL |
| COC1=CC(=O)c2c(O)c(C)c3c(c2C1=O)OC(C)C3 | MTT |  | 98.5 µg/mL |
| C#CCSc1n[nH]c(-c2ccc(C(F)(F)F)cc2)n1 |  |  | >100 µg/mL |
| Cc1c(C(F)(F)F)cc2nc(C3=NCCO3)sc2c1[N+](=O)[O-] | resazurin / fluorescence |  | >100 µM |
| NC(=NC1CCCCCCC1)c1ccc(N2CCN(c3ccc(C(N)=NC4CCCCCCC4)cc3)CC2)cc1 |  |  | >1.95 µg/mL |
| CCOC(=O)c1cc(O)c(O)c(O)c1 | MTS |  | >200 µM |
| CCOC(=O)C(Cc1ccccc1)NOP(=O)(CCC(=O)N1C[C@@H](n2cnc3c(=O)[nH]c(N)nc32)[C@H](OC[C@@H](O)P(=O)(ONC(Cc2ccccc2)C(=O)OCC)ONC(Cc2ccccc2)C(=O)OCC)C1)ONC(Cc1ccccc1)C(=O)OCC |  |  | 132 µM |
| N#Cc1cc2[nH]c3ccc(O)cc3c2oc1=O | visual reading / absorbance |  | 32 µg/mL |
| CCN=C(N)c1ccc(N2CCN(c3ccc(C(N)=NCC)cc3)CC2)cc1 |  |  | >53.7 µg/mL |
| C=C(C)[C@@H]1CCC2(C(=O)OC)CC[C@]3(C)C(CCC4[C@@](C)(CC#N)C(C(C)(C)C(=O)Nc5nccs5)CC[C@]43C)C12 | MTT |  | >100 µM |
| CCCCCCCCN=C(N)c1ccc(N2CCN(c3ccc(C(N)=NCCCCCCCC)cc3)CC2)cc1 |  |  | 2.26 µg/mL |
| O=[N+]([O-])c1ccc(-c2nc(=S)[nH][nH]2)cc1C(F)(F)F | MTT |  | 52.72 µg/mL |
| Cc1cc(C=O)cc(C)c1Oc1cc(Nc2ccc(C#N)cc2)nc2ccccc12 | MTT |  | 51.2 µM |
| N#Cc1cc2[nH]c3ccc([N+](=O)[O-])cc3c2oc1=O | visual reading / absorbance |  | >100 µg/mL |
| C[C@@H]1C[C@@H](O)c2c(O[C@H]3O[C@H](CO)[C@@H](O)[C@H]3O)cccc2O1 | MTT |  | >40 µg/mL |

A second listing of 5 rows from above:

structure	method	conditions	value
COc1cc(N(C(C)=O)C(C)CCCN2C(=O)CN(C(C)=O)C2(C)C)c2ncccc2c1		72 h	>100 µg/mL
COc1c(OC(C)=O)cc2c(c1O)-c1c(cc(O)c(OC)c1OC)C[C@@H](C)[C@@H](C)C2	MTT		>10 µg/mL
CCN=C(N)c1ccc(N2CCN(c3ccc(C(N)=NCC)cc3)CC2)cc1			>53.7 µg/mL
N#Cc1cc2[nH]c3ccc([N+](=O)[O-])cc3c2oc1=O	visual reading / absorbance		>100 µg/mL
O=[N+]([O-])c1ccc(-c2nc(=S)[nH][nH]2)cc1C(F)(F)F	MTT		52.72 µg/mL